Measurements reported in US20110008279A1, “Methods and Compositions Relating to Adhesins as Adjuvants” (priority 2005, published 2011).

Tested on: mo-DCs
Assay: Alexa-NadAΔ351-405 binding to mo-DCs (flow cytometry, Scatchard analysis)
Parameters: species or system human
Details: Scatchard plot
Description: In some cases, DCs primed or not with IFN-γ were treated at 37° C. for 1 hour with FCS/RPMI containing Bafilomycin A1 200 nM, incubated at 37° C. (in RPMI medium supplemented with 10% FBS and Bafilomycin A1) or 0° C. (in PBS supplemented with 10% FBS) for 3 hours with different concentrations (0.0375-5 μM) of Alexa-NadAΔ351-405 or NadA. Afterward cells were washed and suspended in FACS buffer for FACS analysis. Scatchard plots were constructed from data obtained from cell-associated mean fluorescence intensities due to cell-bound Alexa NadA were measured. The dissociation constant Kd and maximal binding capacities were then determined by Scatchard analyses.

## NadAΔ351-405
  fraction of binding sites with high affinity: 20-30%
  fraction of binding sites with low affinity: 70-80%
